## Library screen at single concentrations

Mtb glucose medium: 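Whole-cell growth test on Mycobacterium tuberculosis, read after 3 days in glucose-containing 7H9 medium; the read-out is not stated. Tested at 50 µM. The record gives no direction; compounds that gave an IC50 in retests scored well above the rest, so higher reads as more growth inhibition. Of about 69,000 compounds tested this way, about 760 (1.1%) reached 50% or more in at least one test.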
Mtb cholesterol medium: 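Growth of Mycobacterium tuberculosis over 4 days (cholesterol / DPPC medium with tyloxapol); the read-out is not stated. Concentration: 50 µM. Direction is inferred from retests: higher values go with more growth inhibition. Of about 69,000 compounds tested this way, about 370 (0.54%) reached 50% or more in at least one test.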

Values are the deposited “Percent Effect”, in %.
The record does not define 0% and 100%; most values in the screen are far below 50% and negative numbers occur (in some assays of this library far below -100).
Many other results are left out here, so strong results are more common than in the screen.
Two or more numbers in one place are separate tests of the same structure; such repeats can differ widely.

{"structure": "CC(C)(C)c1ncc(C(=O)NC(C(N)=O)c2ccccc2)s1", "stereo": "stereo not shown", "Mtb glucose medium": -24.89}
{"structure": "CC(C)n1cnc(C2CN(C)c3ccc(C(=O)NCC4CC4)cc32)n1", "stereo": "stereo not shown", "Mtb cholesterol medium": "77.54 & -21.96"}
{"structure": "CCOCCN1CCN(C(C)C(=O)Nc2ccnn2C(C)C)CC1", "stereo": "stereo not shown", "Mtb cholesterol medium": 2.55}
{"structure": "CS(=O)(=O)N1CCc2[nH]cnc2C12CCN(C(=O)c1ccccc1)CC2", "Mtb cholesterol medium": "73.4 & 2.447"}
{"structure": "COc1ccc(-c2nc(CN3CC(n4cccn4)C3)no2)cc1", "Mtb cholesterol medium": -3.33}
{"structure": "CCN(Cc1ccncc1)Cc1cn(-c2ccccc2)nn1", "Mtb glucose medium": 7.082}
{"structure": "Cc1nc2c(Nc3cccc(C#N)c3)nc(N)nc2n1C", "Mtb glucose medium": 67.11, "Mtb cholesterol medium": 87.03}
{"structure": "COc1ccc(CCC2CCCCN2)cc1.Cl", "stereo": "stereo not shown", "Mtb glucose medium": -23.28, "Mtb cholesterol medium": -3.788}
{"structure": "Cc1cc(NC(=O)CNC(C)(C)c2ccc3c(c2)OCCO3)no1", "Mtb glucose medium": "-11.43 & 3.215"}
{"structure": "CCNc1cc2c(nn1)CCN(C(=O)C1COc3ccccc3O1)C2", "stereo": "stereo not shown", "Mtb glucose medium": 17.07, "Mtb cholesterol medium": 7.398}
{"structure": "CCc1nc(N)nc(NCCC(=O)N2CCCC2)c1C", "Mtb glucose medium": "-4.188 & -26.96", "Mtb cholesterol medium": 9.121}
{"structure": "NS(=O)(=O)c1ccc(F)c(C(=O)NCCSc2ccccn2)c1", "Mtb glucose medium": -11.72}
{"structure": "NCc1n[nH]c(-c2ccc(F)cc2)n1", "Mtb glucose medium": "-7.7 & -2.696"}
{"structure": "Fc1ccc(OC2CCN(Cc3nnc(-c4ccco4)o3)CC2)cc1", "Mtb glucose medium": "7.472 & 24.1"}
{"structure": "COc1coc(CN2CCCC(CCc3c(F)cccc3F)C2)cc1=O", "stereo": "stereo not shown", "Mtb glucose medium": "54.35 & 40.19", "Mtb cholesterol medium": 49.84}
{"structure": "O=C(Cc1ccc2c(c1)CCCC2)Nc1cccnc1N1CCSCC1", "Mtb glucose medium": 84.21, "Mtb cholesterol medium": 82.11}
{"structure": "N#Cc1c[nH]nc1NCc1ccc2c(c1)OCO2", "Mtb glucose medium": "3.266 & -0.7974", "Mtb cholesterol medium": 11.47}
{"structure": "CCCc1cc(=O)[nH]c(-n2nc(C3CC3)cc2N)n1", "Mtb glucose medium": 93.23, "Mtb cholesterol medium": 66.33}
{"structure": "COCCCN1CCCN(C(C)C(=O)Nc2ccnn2C(C)C)CC1", "stereo": "stereo not shown", "Mtb cholesterol medium": "2.937 & 9.082"}
{"structure": "CCn1nc(C)c2nc(C(C)C)nc(NCC(C)O)c21", "stereo": "stereo not shown", "Mtb glucose medium": 7.483}
{"structure": "CCOCCNC(=O)Nc1ccc(OCc2noc(C3CC3)n2)cc1", "Mtb glucose medium": "80.04 & -9.059"}
{"structure": "N#Cc1cn[nH]c1NCc1cc(Br)ccc1O", "Mtb glucose medium": 50.28}

Some entries from above, unchanged:

- COCCCN1CCCN(C(C)C(=O)Nc2ccnn2C(C)C)CC1 (stereo not shown) | Mtb cholesterol medium: 2.937% & 9.082%
- NS(=O)(=O)c1ccc(F)c(C(=O)NCCSc2ccccn2)c1 | Mtb glucose medium: -11.72%

From ChEMBL document CHEMBL3988442, “University of Dundee, Small-Polar-MMV Screening Library” (2021).